Measured values from several laboratories, pooled; numbers as filed in NIAID ChemDB.

All rows: tests in culture; species: Mycobacterium kansasii

Zones are inhibition diameters on agar. Blank or dashed fields: not listed here. Rows are shuffled and stem from different studies. A number after MIC or MFC names an inhibition level or a share of isolates.

{"smiles": "CCCc1cnc(C(=O)/C=C/c2ccccc2Br)cn1", "strain": "Hauduroy", "method": "absorbance", "read-out": "MIC", "result": "6.25 µg/mL"}
{"smiles": "Cc1cc(NS(=O)(=O)c2ccc(NC(=O)C(=O)Nc3ccc(S(=O)(=O)Nc4cc(C)on4)cc3)cc2)no1", "strain": "235/80", "method": "broth dilution / absorbance", "setting": "7 d", "read-out": "MIC100", "result": "8 µM"}
{"smiles": "CC[C@H]1OC(=O)[C@H](C)[C@@H](O[C@H]2C[C@@](C)(OC)[C@@H](O)[C@H](C)O2)[C@H](C)[C@@H](O[C@@H]2O[C@H](C)C[C@H](N(C)C)[C@H]2O)[C@](C)(OC)C[C@@H](C)C(=O)[C@H](C)[C@@H](O)[C@]1(C)O", "strain": "104 clinical isolates", "read-out": "MIC90", "result": "0.125 µg/mL"}
{"smiles": "CCCCCCNC(=O)Nc1ccc(S(=O)(=O)Nc2cc(C)on2)cc1", "strain": "6509/96 clinical isolate", "method": "broth dilution / absorbance", "setting": "14 d", "read-out": "MIC100", "result": "250 µM"}
{"smiles": "O=C(Nc1ccc(Cl)cc1)c1cc(Cl)ccc1OP(=O)(Oc1ccccc1)c1ccccc1", "strain": "My 6509/96", "setting": "21 d", "read-out": "MIC", "result": "8 µM"}
{"smiles": "CC(C)(C)c1cnc(C(=O)/C=C/c2ccc(Cl)cc2)cn1", "strain": "Hauduroy", "method": "absorbance", "read-out": "MIC", "result": ">50 µg/mL"}
{"smiles": "O=C(N[C@@H]([C@@H](O)CNCc1cccc(I)c1)C(F)(F)c1ccccc1)OCc1ccccc1", "strain": "T", "method": "broth dilution", "read-out": "MIC", "result": "128 µg/mL"}
{"smiles": "CC(C)(C)c1cnc(C(=O)/C=C/c2ccccc2F)cn1", "strain": "Hauduroy", "method": "absorbance", "read-out": "MIC", "result": "12.5 µg/mL"}
{"smiles": "O=C(Nc1ccccc1)c1ccccc1OP(=O)(c1ccccc1)c1ccccc1", "strain": "My 6509/96", "setting": "14 d", "read-out": "MIC", "result": "250 µM"}
{"smiles": "O=C(/C=C/c1ccccc1Br)c1cnccn1", "strain": "Hauduroy", "method": "absorbance", "read-out": "MIC", "result": "12.5 µg/mL"}
{"smiles": "O=C(Nc1ccc(Cl)cc1)c1cc(Cl)ccc1OP(=O)(Oc1ccccc1)Oc1ccccc1", "strain": "My 6509/96", "setting": "7 d", "read-out": "MIC", "result": "8 µM"}
{"smiles": "CCNC(=O)Nc1ccc(S(=O)(=O)Nc2cc(C)on2)cc1", "strain": "6509/96 clinical isolate", "method": "broth dilution / absorbance", "setting": "7 d", "read-out": "MIC100", "result": "250 µM"}
{"smiles": "O=C(Nc1ccc(Cl)c(Cl)c1)c1cc(Cl)ccc1OP(=O)(Oc1ccccc1)Oc1ccccc1", "strain": "My 235/80", "setting": "21 d", "read-out": "MIC", "result": "8 µM"}
{"smiles": "O=C(N/N=C/N1CCN(c2cc3c(cc2F)c(=O)c(C(=O)O)cn3C2CC2)CC1)c1ccc(C(F)(F)F)cc1", "strain": "235/80", "setting": "14 d", "read-out": "MIC", "result": "1 µM"}
{"smiles": "NNC(=O)c1ccncc1", "strain": "DSM 44162", "method": "broth dilution", "read-out": "MIC100", "result": "29.2 µM"}
{"smiles": "O=C(Nc1ccc(Cl)cc1)c1cc(Cl)ccc1OP(=O)(c1ccccc1)c1ccccc1", "strain": "My 6509/96", "setting": "7 d", "read-out": "MIC", "result": "8 µM"}
{"smiles": "CCCCNC(=O)Nc1ccc(S(=O)(=O)Nc2cc(C)on2)cc1", "strain": "6509/96 clinical isolate", "method": "broth dilution / absorbance", "setting": "14 d", "read-out": "MIC100", "result": "500 µM"}
{"smiles": "O=C(N[C@H]([C@H](O)CNCc1cccc(I)c1)C(F)(F)c1ccccc1)OCc1ccccc1", "strain": "262", "method": "agar diffusion", "read-out": "zone", "tested at": "50 µg/disc", "result": "11 mm"}
{"smiles": "CC(C)c1cnc(C(=O)/C=C/c2ccccc2Br)cn1", "strain": "Hauduroy", "method": "absorbance", "read-out": "MIC", "result": "12.5 µg/mL"}
{"smiles": "CC[C@@H](CO)NCCN[C@@H](CC)CO", "strain": "T", "method": "broth dilution", "read-out": "MIC", "result": "1 µg/mL"}
{"smiles": "CCCNC(=O)Nc1ccc(S(=O)(=O)Nc2cc(C)on2)cc1", "strain": "6509/96 clinical isolate", "method": "broth dilution / absorbance", "setting": "7 d", "read-out": "MIC100", "result": "250 µM"}
{"smiles": "CCCN(CCC)C(=O)c1cc(C)cc(C(=O)N[C@@H]([C@@H](O)CNCc2cccc(I)c2)C(F)(F)c2ccccc2)c1", "strain": "ATCC 35775", "method": "agar diffusion", "read-out": "zone", "tested at": "100 µg/disc", "result": "0 mm"}
{"smiles": "CCCc1c2c([nH]c(=O)c1C)C(=O)c1[nH]c(=O)c(C)c(CCC)c1C2=O", "strain": "G133 Bostrom (ATCC 12478)", "method": "resazurin / fluorescence", "read-out": "MIC90", "result": ">7.5 µg/mL"}
{"smiles": "O=C(Nc1ccc(Cl)c(Cl)c1)c1cc(Cl)ccc1OP(=O)(c1ccccc1)c1ccccc1", "strain": "My 6509/96", "setting": "7 d", "read-out": "MIC", "result": "4 µM"}
{"smiles": "O=C(N[C@H]([C@@H](O)CNCc1cccc(I)c1)C(F)(F)c1ccccc1)OCc1ccccc1", "strain": "ATCC 35775", "method": "broth dilution", "read-out": "MIC", "result": "32 µg/mL"}

The last 2 rows once more:

smiles | strain | method | setting | read-out | tested at | result
O=C(Nc1ccc(Cl)c(Cl)c1)c1cc(Cl)ccc1OP(=O)(c1ccccc1)c1ccccc1 | My 6509/96 | - | 7 d | MIC | - | 4 µM
O=C(N[C@H]([C@@H](O)CNCc1cccc(I)c1)C(F)(F)c1ccccc1)OCc1ccccc1 | ATCC 35775 | broth dilution | - | MIC | - | 32 µg/mL